Chains of the proteins cited; added tags and fusions are not shown.
UniProt P25103, whole entry: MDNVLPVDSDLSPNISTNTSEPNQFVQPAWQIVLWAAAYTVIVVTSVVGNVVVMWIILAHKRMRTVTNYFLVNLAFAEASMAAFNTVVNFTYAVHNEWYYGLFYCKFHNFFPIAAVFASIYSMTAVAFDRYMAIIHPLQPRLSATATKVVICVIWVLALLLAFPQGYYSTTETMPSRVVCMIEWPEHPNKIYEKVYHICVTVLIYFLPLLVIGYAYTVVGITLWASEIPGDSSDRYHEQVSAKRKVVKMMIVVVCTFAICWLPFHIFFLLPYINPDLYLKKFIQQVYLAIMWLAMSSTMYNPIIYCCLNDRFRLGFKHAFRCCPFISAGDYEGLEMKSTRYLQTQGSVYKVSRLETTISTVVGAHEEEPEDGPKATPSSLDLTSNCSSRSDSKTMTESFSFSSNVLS

In US6676950B2, “Neurokinin receptor antagonists and methods of use thereof for inhibiting HIV infection” (The Children's Hospital of Philadelphia, priority 2001, dated 2004):

Target: Neurokinin-1 receptor (NK-1R) (human) (UniProt P25103)
Test: cell-based or functional assay

Substance: Substance P (SP) (from UniProt P20366 58-68) (peptide)
- HIV RT activity in HIV Bal-infected MDM, SP at 10^-6M: 58%
- HIV RT activity in HIV Bal-infected MDM, SP at 10^-8M: 40%
- HIV RT activity in HIV Bal-infected MDM, SP at 10^-10M: 14%
